Results of unrelated studies side by side (data: NIAID ChemDB).

All rows: tests in culture; species: HIV-1; cell line: PBMC; read-out: inhibition

Percent inhibition refers to the dose given; in toxicity tests it is the harm to the cells.

Nc1ccn([C@@H]2O[C@H](CO)C=C2F)c(=O)n1 ; strain: BRU ; read by: RT activity ; dose: 8 µM ; result: 90%
N=C1Sc2ccccc2C2=NCCCN12 ; strain: 98IN022 ; read by: β-galactosidase ; dose: 1.48 µM ; result: 90%
CO[C@H]1C[C@@H]2CC[C@@H](C)[C@@](O)(O2)C(=O)C(=O)N2CCCC[C@H]2C(=O)O[C@H]([C@H](C)C[C@@H]2CC[C@@H](O)[C@H](OC)C2)CC(=O)[C@H](C)/C=C(\C)[C@@H](O)[C@@H](OC)C(=O)[C@H](C)C[C@H](C)/C=C/C=C/C=C/1C ; strain: CC101.19 R5 AD101-resistant ; read by: p24 ; dose: 0.0005 µM ; result: 95%
C[S+](CC[C@H](N)C(=O)[O-])C[C@H]1O[C@@H](n2cnc3c(N)ncnc32)[C@H](O)[C@@H]1O ; strain: IIIB ; read by: p24 ; dose: 33 µg/mL ; result: 33%
C[C@H](CCCC(C)(C)O)[C@H]1CC[C@H]2[C@@H]3CC=C4C[C@@H](O)CC[C@]4(C)[C@H]3CC[C@]12C ; strain: NL4-3 ; read by: p24 ; dose: 1 µM ; result: 80%
CC(=O)N1CCC(C(=O)N(CCCN2CCC(Cc3ccc(C(N)=O)cc3)CC2)c2ccc(C)c(Cl)c2)CC1 ; strain: KK Clinical isolates ; read by: p24 ; dose: 0.012 µM ; result: 90%
CN(C[C@@H](CCN1CCC2(CC1)CS(=O)c1ccccc12)c1ccc(Cl)c(Cl)c1)S(=O)(=O)c1ccc(-c2ccccn2)s1 ; strain: YU2 ; dose: 12.5 µM ; result: <95%
Cc1ccc(-c2ccc3c(c2)C=C(C(=O)Nc2ccc(C[N+](C)(C)C4CCOCC4)cc2)CCC3)cc1 ; strain: TB5 CLADE C ; read by: p24 ; dose: 1 µM ; result: 73%
O=c1[nH]cc(F)c(=O)[nH]1 ; strain: JEW ; read by: p24 ; dose: 0.5 µM ; result: 0%
Cc1c2ccnc(Cl)c2cc2c3cn(C)ccc-3nc12 ; read by: p24 / ELISA ; dose: 1 µM ; result: 78%
Nc1nc(NC2CC2)c2ncn([C@H]3C=C[C@@H](CO)C3)c2n1 ; strain: XM-M184V ; mutations: RT-M184V ; read by: p24 ; dose: 7 µM ; result: 90%
Nc1nc(NC2CC2)c2ncn([C@H]3C=C[C@@H](CO)C3)c2n1 ; strain: SBH Clinical isolate ; read by: p24 ; dose: 0.25 µM ; result: 4%
Cc1cn([C@H]2C[C@H](N=[N+]=[N-])[C@@H](CO)O2)c(=O)[nH]c1=O ; strain: Ba-L (R5-tropic) ; read by: RT activity ; dose: 0.045 µM ; result: 90%
CN(C)CCCNC(=O)CCNC(=O)c1cc(NC(=O)c2nc(NC(=O)CCNC(=O)c3cc(NC(=O)c4nc(NC(=O)CCCNC(=O)c5cc(NC(=O)c6nc(NC(=O)CCNC(=O)c7cc(NC(=O)c8nccn8C)cn7C)cn6C)cn5C)cn4C)cn3C)cn2C)cn1C ; strain: WEAU 1.6 ; read by: p24 ; dose: 1 µM ; result: 80%
CC(C)CN(C[C@@H](O)[C@H](Cc1ccccc1)NC(=O)O[C@H]1CO[C@H]2OCC[C@H]21)S(=O)(=O)c1ccc2nc(NC3CCN(C4CCCC4)CC3)sc2c1 ; strain: LAI ; read by: p24 / ELISA ; dose: 0.007 µM ; result: 90%
CC(=O)CCCCn1c(=O)c2c(ncn2C)n(C)c1=O ; read by: RT activity ; dose: 25 µM ; result: 25%
Cc1ccc(C)c(NS(=O)(=O)c2cc(C(=O)NCc3ccccn3)ccc2Cl)c1 ; strain: Clinical isolate ; mutations: Nevirapine resistant ; read by: p24 ; dose: 2.5 µM ; result: 90%
N#CC1C=Cc2ccccc2N1C(=O)c1ccc(Cl)cc1 ; strain: D34 ; read by: p24 ; dose: 10 µM ; result: 100%
COc1ccc(/C=C/C(=O)O[C@H]2[C@H](OC3OC=C(C(=O)O)[C@H]4CC[C@](C)(O)[C@@H]34)O[C@H](CO)[C@@H](O)[C@@H]2O)cc1 ; strain: SA ; read by: p24 / antigen / PCR ; dose: 2.5 µg/mL ; result: >99%
Nc1ccn([C@@H]2C=C[C@H](CO)O2)c(=O)n1 ; mutations: RT-M184V ; read by: RT activity ; dose: 28.2 µM ; result: 90%
C[C@H]1[C@H](O)[C@@H](C)/C=C/C=C/C=C/C=C/C=C/C=C/C=C/[C@H](O[C@@H]2O[C@H](C)[C@@H](O)[C@H](N)[C@@H]2O)C[C@@H]2O[C@](O)(C[C@@H](O)C[C@@H](O)CC[C@H](O)[C@@H](O)C[C@@H](O)CC(=O)O[C@H]1C)C[C@H](O)[C@H]2C(=O)O ; strain: MDR3761 Primary isolate X4 (SI) ; read by: p24 / RT activity ; dose: 4.5 µM ; result: 90%
O=C(Nc1ncc([N+](=O)[O-])s1)c1ccccc1O ; strain: BaL ; read by: p24 ; dose: 10 µg/mL ; result: 87.8%
CN(C[C@@H](CCN1CCC2(CC1)CC(=O)c1ccccc12)c1cccc(Cl)c1)S(=O)(=O)c1ccccc1 ; strain: YU2 ; read by: RT activity ; dose: 1.5 µM ; result: 95%
CCCCCCCC(=O)Nc1nc(N)nc2c1ncn2[C@H]1CO[C@@H](CO)O1 ; strain: LAV-1 ; read by: RT activity ; dose: 7.6 µM ; result: 56%
O=C(O)[C@H]1O[C@@H](Oc2ccc(/C=C/c3cc(O)cc(O)c3)cc2)[C@H](O)[C@@H](O)[C@@H]1O ; strain: IIIB ; read by: RT activity ; dose: 300 µM ; result: 30.4%
Cc1cc2ccccc2c(-c2ccc3c4c(ccnc24)CCO3)c1[C@H](OC(C)(C)C)C(=O)O ; strain: NL4-3 ; read by: p24 ; dose: 0.03 µM ; result: 95%
CCCCCCCCCCCCCCCC(=O)N(CCCCCCCCCCC(=O)O)CC(O)C(O)C(O[C@@H]1O[C@H](CO)[C@H](O)[C@H](O)[C@H]1O)C(O)CO ; read by: XTT / p24 ; dose: 246 µM ; result: 100%
O=c1[nH]c(=O)n([C@H]2C[C@H](O)[C@@H](CO)O2)cc1F ; read by: p24 ; dose: 1.8 µM ; result: 90%
Nc1ccn([C@@H]2C=C(F)[C@H](CO)O2)c(=O)n1 ; strain: BRU-184V ; read by: PCR ; dose: 68.4 µM ; result: 90%
CO[C@H]1C[C@@H]2CC[C@@H](C)[C@@](O)(O2)C(=O)C(=O)N2CCCC[C@H]2C(=O)O[C@H]([C@H](C)C[C@@H]2CC[C@@H](O)[C@H](OC)C2)CC(=O)[C@H](C)/C=C(\C)[C@@H](O)[C@@H](OC)C(=O)[C@H](C)C[C@H](C)/C=C/C=C/C=C/1C ; strain: IIIB X4 ; read by: p24 ; dose: 0.01 µM ; result: 13.5%
CC(=Nc1ccc(O)cc1)C1Sc2ncccc2C1=O ; strain: NL4-3 ; read by: RT activity ; dose: 9.41 µM ; result: 90%
N=C1Sc2ccccc2C2=NCCCN12 ; strain: 92UG029 ; read by: MTS ; dose: 4.67 µM ; result: 90%
O=C(O)CCC(CCC(=O)O)(CCC(=O)O)NC(=O)CCC(CCC(=O)NC(CCC(=O)O)(CCC(=O)O)CCC(=O)O)(CCC(=O)NC(CCC(=O)O)(CCC(=O)O)CCC(=O)O)NC(=O)CCCOC(=O)C1(C(=O)OCCCC(=O)NC(CCC(=O)NC(CCC(=O)O)(CCC(=O)O)CCC(=O)O)(CCC(=O)NC(CCC(=O)O)(CCC(=O)O)CCC(=O)O)CCC(=O)NC(CCC(=O)O)(CCC(=O)O)CCC(=O)O)C2c3cc4c5c6c3-c3c(cc7c8c3C6C3c6c-5c(cc5ccc9cc(c-8c3c9c65)C7)C4)C21 ; mutations: 3TC-resistant (RT M184V) ; read by: cytopathic effect ; dose: 0.7 µM ; result: 90%
FC(F)(F)Oc1ccc(Nc2ccc3cccc(Cl)c3n2)cc1 ; strain: AD8 ; read by: p24 / ELISA ; dose: 5 µM ; result: 71%
CC#C[C@]1(O)CC[C@H]2[C@@H]3CCC4=CC(=O)CCC4=C3[C@@H](c3ccc(N(C)C)cc3)C[C@@]21C ; strain: 89.6 ; read by: p24 / ELISA ; dose: 10 µM ; result: >95%
CSCC[C@H](NC(=O)[C@H](Cc1ccc(O)cc1)NC(=O)[C@H](CCCCN)NC(=O)[C@@H](N)Cc1c[nH]c2ccccc12)C(=O)N[C@H](C(=O)N[C@H](CCSC)C(=O)O)C(C)C ; strain: BAL R5 ; read by: p24 ; dose: 10 µM ; result: 38%

Repeating the final 4 entries:

SMILES	strain	mutations	read by	dose	result
O=C(O)CCC(CCC(=O)O)(CCC(=O)O)NC(=O)CCC(CCC(=O)NC(CCC(=O)O)(CCC(=O)O)CCC(=O)O)(CCC(=O)NC(CCC(=O)O)(CCC(=O)O)CCC(=O)O)NC(=O)CCCOC(=O)C1(C(=O)OCCCC(=O)NC(CCC(=O)NC(CCC(=O)O)(CCC(=O)O)CCC(=O)O)(CCC(=O)NC(CCC(=O)O)(CCC(=O)O)CCC(=O)O)CCC(=O)NC(CCC(=O)O)(CCC(=O)O)CCC(=O)O)C2c3cc4c5c6c3-c3c(cc7c8c3C6C3c6c-5c(cc5ccc9cc(c-8c3c9c65)C7)C4)C21		3TC-resistant (RT M184V)	cytopathic effect	0.7 µM	90%
FC(F)(F)Oc1ccc(Nc2ccc3cccc(Cl)c3n2)cc1	AD8		p24 / ELISA	5 µM	71%
CC#C[C@]1(O)CC[C@H]2[C@@H]3CCC4=CC(=O)CCC4=C3[C@@H](c3ccc(N(C)C)cc3)C[C@@]21C	89.6		p24 / ELISA	10 µM	>95%
CSCC[C@H](NC(=O)[C@H](Cc1ccc(O)cc1)NC(=O)[C@H](CCCCN)NC(=O)[C@@H](N)Cc1c[nH]c2ccccc12)C(=O)N[C@H](C(=O)N[C@H](CCSC)C(=O)O)C(C)C	BAL R5		p24	10 µM	38%

Blank or dashed fields: not listed here. Rows are shuffled and stem from different studies.